# Assay results published in paper PMC4216219 (Journal of Medicinal Chemistry, 2014).
# Experiments:
# [1] = test system: L. amazonensis intracellular amastigotes; assay: L. amazonensis intracellular amastigote assay; conditions: compared with compound 2
# [2] = test system: L. donovani intracellular amastigotes; assay: L. donovani intracellular amastigote assay; conditions: compared with compound 2
# [3] = test system: L. donovani MHOM/NP/02/BPK164/1; conditions: antimony-resistant clinical isolate
Compound,lost potency against L. amazonensis by a factor [1],lost potency against L. donovani by a factor [2],EC50 BPK164/1 [3]
"OCCNc1nc(NCc2ccco2)c2ccccc2n1 [Compound 4, 2-(4-(Furan-2-ylmethylamino)quinazolin-2-ylamino)ethanol]",> 13,10,–
O.O.O.O.O.O.O.O.O.O=C([O-])[C@@H]1[O][Sb](=[O])([O][Sb]2(=[O])[O][C@H]([C@H](O)CO)[C@H](O)[C@H](C(=O)[O-])[O]2)[O][C@H]([C@H](O)CO)[C@@H]1O.[Na+].[Na+].[Na+] (stereo partly drawn) [sodium stibogluconate],–,–,>60 micrograms of pentavalent antimony per milliliter
